The source of these data is article PMC3898472, “Molecular Basis for DNA Double-Strand Break Annealing and Primer Extension by an NHEJ DNA Polymerase”.

This series deals with Mt-PolDom (LigD polymerase domain) (UniProt P9WNV3). The experiment in a line: EMSA. Conditions: 200 nM protein; 5'-phosphate on DG; recombinant protein; residues 1-300; label: 32P 5'-end label. A general note: Mobility shift assays separate free from complexed probe on a gel.

Construct, isoform or probe ends are uncertain for at least one entry. At least one verdict rests on a figure or table, not on a statement of the authors.

For the sequence “AGAAGTGTATCTAGTACTCACTGTGATC / GATCACAGTGAGTAC / AGATACACTTCT [1-nt gapped SP1C/T13C/DG-P]”, the binding result was “binds”.
